Patent US7115708B2 (priority 2001, dated 2006)

The chains behind the UniProt entries cited, without tags or fusion partners. Where a name states a change or a piece, a line headed by the entry shows the natural chain unless it says otherwise.
UniProt P35346: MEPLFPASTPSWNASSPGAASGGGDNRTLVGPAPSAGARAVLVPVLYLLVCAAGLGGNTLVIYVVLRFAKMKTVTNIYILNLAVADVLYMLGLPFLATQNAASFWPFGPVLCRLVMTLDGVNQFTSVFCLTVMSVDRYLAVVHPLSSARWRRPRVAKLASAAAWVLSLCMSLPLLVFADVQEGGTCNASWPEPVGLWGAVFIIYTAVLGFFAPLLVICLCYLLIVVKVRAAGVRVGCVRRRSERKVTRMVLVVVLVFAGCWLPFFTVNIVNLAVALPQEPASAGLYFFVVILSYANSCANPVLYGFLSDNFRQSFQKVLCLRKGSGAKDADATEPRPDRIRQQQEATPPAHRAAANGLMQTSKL
UniProt P31391: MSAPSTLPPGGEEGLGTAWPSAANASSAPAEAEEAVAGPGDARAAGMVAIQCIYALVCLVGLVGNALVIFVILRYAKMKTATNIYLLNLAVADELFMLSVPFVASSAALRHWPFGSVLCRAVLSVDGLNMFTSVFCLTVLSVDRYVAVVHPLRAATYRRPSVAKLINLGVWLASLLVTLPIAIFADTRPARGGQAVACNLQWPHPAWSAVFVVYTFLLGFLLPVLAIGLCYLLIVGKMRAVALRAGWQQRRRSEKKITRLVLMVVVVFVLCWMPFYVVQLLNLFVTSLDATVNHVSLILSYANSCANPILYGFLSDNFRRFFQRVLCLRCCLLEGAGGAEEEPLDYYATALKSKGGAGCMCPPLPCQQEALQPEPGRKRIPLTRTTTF
UniProt P30874: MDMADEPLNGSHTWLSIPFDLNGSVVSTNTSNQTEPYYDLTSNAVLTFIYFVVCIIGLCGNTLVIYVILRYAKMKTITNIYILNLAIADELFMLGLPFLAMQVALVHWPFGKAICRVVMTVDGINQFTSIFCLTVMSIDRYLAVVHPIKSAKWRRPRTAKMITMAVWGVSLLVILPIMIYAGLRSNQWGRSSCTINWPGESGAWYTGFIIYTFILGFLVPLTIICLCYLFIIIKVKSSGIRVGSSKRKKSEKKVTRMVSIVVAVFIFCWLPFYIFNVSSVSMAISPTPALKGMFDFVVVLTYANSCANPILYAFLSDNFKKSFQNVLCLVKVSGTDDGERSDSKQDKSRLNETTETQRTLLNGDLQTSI
UniProt P30872: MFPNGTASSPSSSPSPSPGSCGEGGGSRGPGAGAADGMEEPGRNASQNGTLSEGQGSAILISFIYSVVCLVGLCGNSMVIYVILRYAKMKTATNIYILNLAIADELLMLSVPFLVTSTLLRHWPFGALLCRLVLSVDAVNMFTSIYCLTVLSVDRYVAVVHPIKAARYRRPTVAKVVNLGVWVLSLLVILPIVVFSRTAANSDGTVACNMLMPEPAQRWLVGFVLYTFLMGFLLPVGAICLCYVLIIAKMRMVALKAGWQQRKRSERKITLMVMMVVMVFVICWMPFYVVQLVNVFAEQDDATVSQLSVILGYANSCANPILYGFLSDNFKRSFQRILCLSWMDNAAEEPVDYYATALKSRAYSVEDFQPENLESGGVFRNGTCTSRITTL
UniProt P32745: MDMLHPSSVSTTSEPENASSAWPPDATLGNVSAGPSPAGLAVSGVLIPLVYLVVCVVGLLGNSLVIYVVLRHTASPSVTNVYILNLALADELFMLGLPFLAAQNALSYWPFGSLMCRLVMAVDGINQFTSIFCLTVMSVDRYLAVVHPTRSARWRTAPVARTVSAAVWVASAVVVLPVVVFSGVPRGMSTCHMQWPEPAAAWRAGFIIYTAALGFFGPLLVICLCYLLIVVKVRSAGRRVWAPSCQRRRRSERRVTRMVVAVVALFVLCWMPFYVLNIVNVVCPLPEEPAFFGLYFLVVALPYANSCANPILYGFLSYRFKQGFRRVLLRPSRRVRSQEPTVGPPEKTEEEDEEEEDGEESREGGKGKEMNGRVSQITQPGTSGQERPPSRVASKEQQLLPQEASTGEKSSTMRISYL
UniProt Q99705: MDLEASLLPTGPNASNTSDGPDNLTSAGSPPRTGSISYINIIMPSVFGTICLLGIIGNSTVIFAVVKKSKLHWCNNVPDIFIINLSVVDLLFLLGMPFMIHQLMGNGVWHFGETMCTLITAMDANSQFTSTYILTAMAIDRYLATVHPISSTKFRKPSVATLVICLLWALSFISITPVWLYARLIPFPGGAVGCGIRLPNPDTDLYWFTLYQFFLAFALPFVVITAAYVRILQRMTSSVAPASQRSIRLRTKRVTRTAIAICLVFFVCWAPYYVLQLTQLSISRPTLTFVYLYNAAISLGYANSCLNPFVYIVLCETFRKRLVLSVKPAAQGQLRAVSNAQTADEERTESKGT
UniProt P41968: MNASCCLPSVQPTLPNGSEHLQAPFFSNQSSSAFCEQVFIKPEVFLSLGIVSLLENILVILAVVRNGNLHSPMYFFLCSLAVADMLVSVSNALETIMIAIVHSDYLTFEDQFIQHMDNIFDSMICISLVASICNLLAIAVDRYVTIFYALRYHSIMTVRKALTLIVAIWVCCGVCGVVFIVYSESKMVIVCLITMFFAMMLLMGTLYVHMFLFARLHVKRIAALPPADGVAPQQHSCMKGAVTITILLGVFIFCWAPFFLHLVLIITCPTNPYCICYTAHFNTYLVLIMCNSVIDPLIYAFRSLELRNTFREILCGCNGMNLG
UniProt P33032: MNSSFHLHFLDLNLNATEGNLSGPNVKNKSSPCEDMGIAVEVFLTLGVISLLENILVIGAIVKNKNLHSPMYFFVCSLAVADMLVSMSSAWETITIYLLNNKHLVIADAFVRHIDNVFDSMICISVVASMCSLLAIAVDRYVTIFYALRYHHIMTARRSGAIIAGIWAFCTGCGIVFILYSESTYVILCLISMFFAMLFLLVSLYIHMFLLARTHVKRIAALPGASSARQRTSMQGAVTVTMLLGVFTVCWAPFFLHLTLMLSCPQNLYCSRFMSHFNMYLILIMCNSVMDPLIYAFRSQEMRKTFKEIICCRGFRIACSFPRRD
UniProt P32245: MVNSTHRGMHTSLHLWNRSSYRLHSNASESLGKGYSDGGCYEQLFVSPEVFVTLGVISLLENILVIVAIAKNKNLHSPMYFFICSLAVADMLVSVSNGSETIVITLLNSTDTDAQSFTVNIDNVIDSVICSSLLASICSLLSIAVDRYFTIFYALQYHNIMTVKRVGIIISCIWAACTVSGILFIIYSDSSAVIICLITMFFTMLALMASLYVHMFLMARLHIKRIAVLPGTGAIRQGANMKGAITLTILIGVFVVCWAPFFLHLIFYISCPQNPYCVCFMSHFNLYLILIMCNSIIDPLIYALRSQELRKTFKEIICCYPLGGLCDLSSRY

Assays:
Somatostatin sst5 [1] = biological target: Somatostatin sst5 (Homo sapiens, UniProt P35346); assay: Somatostatin sst5 radioligand binding; conditions: Hill coefficient
MIA PaCa-2 = assay: alamarBlue tumor cell proliferation assay, Pancreas, MIA PaCa-2; conditions: for Percent Growth (Mean ± SEM, n = 2): 72-hour incubation, MIA PaCa-2
Somatostatin sst4 = Somatostatin sst4 (Homo sapiens, UniProt P31391); assay: Somatostatin sst4 radioligand binding; conditions: Hill coefficient
Somatostatin sst2 [2] = biological target: Somatostatin sst2 (Homo sapiens, UniProt P30874); assay: Somatostatin sst2 radioligand binding; conditions: Hill coefficient
MCF-7 = assay: alamarBlue tumor cell proliferation assay, Breast, MCF-7; conditions: for Percent Growth (Mean ± SEM, n = 2): 72-hour incubation, MCF-7
Somatostatin sst1 = Somatostatin sst1 (Homo sapiens, UniProt P30872); assay: Somatostatin sst1 radioligand binding; conditions: Hill coefficient
Somatostatin sst2 [3] = assay: Somatostatin sst2 tissue assay, guinea pig ileum; conditions: 1 μM
Somatostatin sst5 [4] = assay: Somatostatin sst5 tissue assay, guinea pig vas deferens; conditions: 1 μM
Somatostatin sst3 = Somatostatin sst3 (Homo sapiens, UniProt P32745); assay: Somatostatin sst3 radioligand binding; conditions: Hill coefficient
MCH (h) = MCH (h) (Homo sapiens, UniProt Q99705); assay: MCH (h) radioligand binding; conditions: 10 μM
Melanocortin MC1 = Melanocortin MC1 radioligand binding; conditions: 10 μM
Melanocortin MC3 = Melanocortin MC3 (Homo sapiens, UniProt P41968); assay: Melanocortin MC3 radioligand binding; conditions: 10 μM
Melanocortin MC5 = Melanocortin MC5 (Homo sapiens, UniProt P33032); assay: Melanocortin MC5 radioligand binding; conditions: for % Inh.: 10 μM
Melanocortin MC4 = Melanocortin MC4 (Homo sapiens, UniProt P32245); assay: Melanocortin MC4 radioligand binding; conditions: 10 μM

CC(C)C[C@H](N)C(=O)N[C@@H](Cc1ccccc1)C(=O)N[C@H]1CSSC[C@@H](C(=O)N[C@@H](Cc2c[nH]c3ccccc23)C(=O)N2CCC[C@H]2C(=O)N[C@@H](CCCNC(=N)N)C(=O)N2CCC[C@H]2C(=O)N[C@@H](Cc2ccc(O)cc2)C(=O)N2CCC[C@H]2C(=O)N[C@@H](Cc2c[nH]c3ccccc23)C(=O)N[C@@H](CCCNC(=N)N)C(=O)O)NC(=O)[C@H](CO)NC(=O)[C@H](CCCCN)NC(=O)[C@@H](Cc2c[nH]c3ccccc23)NC(=O)[C@H](Cc2ccccc2)NC1=O
nh (Somatostatin sst5 [1]): 0.961
Percent Growth (Mean ± SEM, n = 2) (MIA PaCa-2; 0.01 μM): 102 ± 3%
Percent Growth (Mean ± SEM, n = 2) (MIA PaCa-2; 0.1 μM): 102 ± 6%
Percent Growth (Mean ± SEM, n = 2) (MIA PaCa-2; 1 μM): 100 ± 4%
Percent Growth (Mean ± SEM, n = 2) (MIA PaCa-2; 10 μM): 109 ± 2%
Percent Growth (Mean ± SEM, n = 2) (MIA PaCa-2; 100 μM): −14 ± 9%
Estimated TGI (Total Growth Inhibition) (MIA PaCa-2; MIA PaCa-2, semi-quantitative, nonlinear regression): 95 µM
nh (Somatostatin sst4): 1.26
nh (Somatostatin sst2 [2]): 1.24
Percent Growth (Mean ± SEM, n = 2) (MCF-7; 0.01 μM): 100 ± 8%
Percent Growth (Mean ± SEM, n = 2) (MCF-7; 0.1 μM): 88 ± 12%
Percent Growth (Mean ± SEM, n = 2) (MCF-7; 1 μM): 87 ± 9%
Percent Growth (Mean ± SEM, n = 2) (MCF-7; 10 μM): 102 ± 14%
Percent Growth (Mean ± SEM, n = 2) (MCF-7; 100 μM): −43 ± 11%
Estimated TGI (Total Growth Inhibition) (MCF-7; MCF-7, semi-quantitative, nonlinear regression): 81 µM
nh (Somatostatin sst1): 0.736
AG (Agonist): inhibition of contraction relative to somatostatin28 responses (Somatostatin sst2 [3]): 68%
AG (Agonist): inhibition of contraction relative to somatostatin28 responses (Somatostatin sst5 [4]): 61%
nh (Somatostatin sst3): 0.714

SLWCVCPFRVCPPCHGR^ (335)
% Inh. (MCH (h)): 83%
% Inh. (Melanocortin MC1): 60%
% Inh. (Melanocortin MC3): 67%
% Inh. (Melanocortin MC5): 96%
% Inh. (Melanocortin MC4): 67%

CC(C)C[C@H](NC(=O)[C@@H](N)CO)C(=O)N[C@@H](Cc1c[nH]c2ccccc12)C(=O)N[C@H]1CSSC[C@@H]2NC(=O)[C@H](C(C)C)NC(=O)[C@H](CCCNC(=N)N)NC(=O)[C@H](Cc3ccccc3)NC(=O)[C@@H]3CCCN3C(=O)[C@H](CSSC[C@@H](C(=O)N[C@@H](Cc3c[nH]cn3)C(N)=O)NC(=O)[C@@H]3CCCN3C(=O)[C@@H]3CCCN3C2=O)NC(=O)[C@H](C(C)C)NC1=O
nh (Melanocortin MC5; Hill coefficient): 0.762

SLWCVCPFRVCPPCHGR^ (334)
% Inh. (MCH (h)): 65%
% Inh. (Melanocortin MC1): 66%
% Inh. (Melanocortin MC5): 89%
% Inh. (Melanocortin MC4): 58%
